Here are results for one compound from US20260223846A1, “PEPTIDE IN COMBINATION WITH FUNGICIDE COMPOSITIONS FOR FUNGAL CONTROL AND RELATED METHODS” (priority 2023, published 2026).

One assay relates to Botrytis (Strain B05.10). The experiment in a line: Botrytis inhibition assay (resazurin assay). The class given is cell-based. The following applies: tested alone at 2.5 μM. On the technique in general: Resazurin is reduced to fluorescent resorufin, in cell work by metabolically active cells.
For assay [1], the system named is Fusarium graminearum (Gibberella zeae). Format: cell-based.
Assay [2] deals with Pseudoperonospora cubensis. As to the kind of experiment: Pseudoperonospora cubensis (cucurbit downy mildew) leaf disk assay. The class given is in vivo.
The test system of assay [3] is Fusarium oxysporum f. sp. lycopersici (Saccardo) Snyder et Hansen CBS 167.30. As to the kind of experiment: Resazurin plate co-incubation assay, F. oxysporum. Format: cell-based.
The next assay deals with Botrytis cinerea b05.10. Format: cell-based. The following applies: for Inhibition: 24 hours at 20° C.
The test system of another assay is Fusarium proliferatum. As to the kind of experiment: Co-incubation (oCelloScope) assay, F. proliferatum conidial germination. The class given is cell-based. As to conditions: 24 hours at 23° C.

Read-outs that look alike come from different tables or passages of the source.

Consider `CSCC[C@H](NC(=O)[C@@H]1CCCN1C(=O)[C@H](CCC(N)=O)NC(=O)CNC(=O)[C@@H]1CCCN1C(=O)[C@H](CCCCN)NC(=O)[C@H](CC(C)C)NC(=O)[C@H](CCC(N)=O)NC(=O)[C@H](CC(C)C)NC(=O)[C@H](Cc1c[nH]c2ccccc12)NC(=O)[C@H](Cc1c[nH]cn1)NC(=O)[C@@H](N)Cc1c[nH]c2ccccc12)C(=O)N[C@@H](Cc1ccc(O)cc1)C(=O)N[C@@H](CCCNC(=N)N)C(=O)N[C@@H](CCCNC(=N)N)C(=O)N[C@@H](CCCNC(=N)N)C(=O)N[C@@H](CCCNC(=N)N)C(=O)N[C@@H](CCCNC(=N)N)C(=O)N[C@@H](CCCNC(=N)N)C(=O)N[C@@H](CCCNC(=N)N)C(=O)N[C@@H](CCCNC(=N)N)C(=O)O` [Pep340], for which the “Percent Inhibition EXP23002594” value with Botrytis (Strain B05.10) was determined as 9.26%. Also, in the assay on Botrytis (Strain B05.10), the “Percent Inhibition EXP23002662” value is on record as 5.3%. Besides, the Inhibition entry in assay [1] (50 micromolar) was “Yes”; in assay [3] (50 micromolar), “Yes”; in the assay with Botrytis cinerea b05.10 (10 micromolar) it was “inhibited and Yes”; in the assay with Botrytis cinerea b05.10 (100 micromolar) it was “inhibited and Yes”. Also, the “Summary of CGI factor spectrum of activity” value is “Yes” in assay [1] (Fusarium graminearum); “No” in assay [2] (Downy Mildew); “Yes” in assay [3] (Fusarium oxysporum); “completely inhibited conidial germination and Yes” with Botrytis cinerea b05.10 (Botrytis cinerea, at least one concentration tested). For the same compound, the “Inhibition (reduced disease severity of leaf discs)” value in assay [2] (20 micromolar) was “did not and No”. For the same compound, the “Inhibition of conidial germination” value was “No” in the assay on Fusarium proliferatum (tested alone at 0.125 uM); “No” in the assay with Fusarium proliferatum (tested alone at 0.25 uM); “showed activity and Yes and No” in the assay with Fusarium proliferatum (tested alone at 0.5 uM); “effective and Yes” in the assay on Fusarium proliferatum (tested alone at 1 uM).
